Results as given in US12018066, “Compositions for targeting SARS-CoV-2 spike protein receptor binding domain” (TRIAD NATIONAL SECURITY, dated 2024).

B1: S01 IgG1 (antibody, V domains shown)
VH: QVQLVESGGGLVKPGGSLRLSCAASGFTVGSNYMSWVRQAPGKGLEWVSVIYSGGSTYYADSVKGRFTISRDNSKNTLYLQMNSLRAEDTAVYYCARGSSGAWYFDLWGRGTLVTVSS
VL: EIVMTQSPSSLSASVGDSVTITCQASQDISNYLNWYQQKPGKAPKLLIYDASNLETGVPSRFSGGGSGTDFTLTITSLQPEDIATYYCQQYDNFPPTFGPGTKVDIK
notes: also called 501
B2: R04 IgG1 (antibody, V domains shown)
VH: QVQLQQSGPGLVKSSQTLSLTCAISGDSVSSNGAAWHWIRQSPSRGLEWLGRTYYRSGWYNDYAVSVKSRITINQDTSKNQFSLQLNSVTPEDTAVYFCAREGGGGRMDVWSQGTTVTVSS
VL: EIVMTQSPSSLSASVGDRVTITCQASQDISNYLNWCQQKPGKAPKLLIYDASNLETGVPSRFSGSGSGTGFTFTISSLQPEDFATYYCQQSYSTPYTFGQGTKVEIK

Legend:
[1] = biological target: SARS-CoV-2 spike protein variant D614G (SARS-CoV-2, UniProt P0DTC2 16-1213)
[2] = biological target: SARS-CoV spike protein receptor binding domain (RBD1) (SARS-CoV, UniProt P59594 306-527)
RBD2-sfGFP-6His = RBD2-sfGFP-6His (SARS-CoV-2, UniProt P0DTC2); experiment: FLISA, immobilized IgG, 100 nM sfGFP chimera, GFP fluorescence
[3] = biological target: T1, SARS-CoV-2 spike subunit 1 (S1), avitagged and biotinylated (SARS-CoV-2, UniProt P0DTC2 16-685); experiment: FLISA, immobilized IgG, 100 nM biotinylated antigen, streptavidin-Alexa 633
T1 construct: domain: S1

| Binder | fold reduction of detection sensitivity, wild-type vs D614G spike [1] [fold] | binding result [2] | binding result (RBD2-sfGFP-6His) | binding result [3] |
| --- | --- | --- | --- | --- |
| B1 | ≥ 31 | no binding (tested: 100 nM) |  |  |
| B2 |  |  | no binding (tested: 100 nM) | no binding (tested: 100 nM) |
